Data taken from patent publication US9730928B2, “Trizol-1-OL analogs anti-retroviral latency drugs” (priority 2013, dated 2017).

Tested on: latent HIV-1
Assay: Reactivation of latent HIV-1 in absence or presence of γc-cytokines
Type: cell-based
Details: cytokine by itself, compared with absence of cytokines
Description: Latently infected cells were generated using healthy, uninfected DONOR 78 cells that were infected with DHIV virus. Reactivation was monitored by analysis of p24Gag by Flow Cytometry 72 hours after stimulation. HOBt was tested in the presence or absence of IL-2, a γc-cytokine required for survival of the cells in vivo.

With “IL-2: γc-cytokine required for survival of the cells” the “viral reactivation by cytokine alone” value was “trend towards increasing viral reactivation”.
